Consider 53 compounds from PubChem BioAssay AID720641 (ICCB-Longwood Screening Facility, Harvard Medical School, 2013).

Only a part is listed here, and it is no random draw. Calls of active or inactive are those of the source.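 How the source made its calls: active means relative growth at most 50% at the other temperature and 20+ points below 30 °C, or under 10% at both; inactive means the rest, inconclusive results apart.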

A short description of this test: Staphylococcus aureus RN4220 growth blockers – two temperatures, LtaS inhibitor project, primary screen (AID 720641). The conditions noted are these: S. aureus RN4220 growth, OD600, 20 h, 42 °C; hits give low values.
Consider `COc1ccccc1OP(C)(=O)Nc1ccccc1` (stereo not drawn), for which the relative growth is inactive: 97.9%.

Turning to `CCN1C(=O)N(c2ccccc2)P(=S)(OC)c2cc3c(cc21)OCCO3` (stereo not drawn), the relative growth is inactive: 85.9%.

On to `CP(=O)(Nc1ccc(Cl)cc1)Oc1ccccc1` (stereo not drawn), for which the relative growth was inactive: 97.1%.

Take `O=C(O)CCC(=O)N=S(c1ccccc1)c1ccccc1.O=[N+]([O-])c1cc([N+](=O)[O-])c(O)c([N+](=O)[O-])c1`: the relative growth is inactive: 106%.

Take `CCn1cccc/c1=N\P1(=S)OCCO1`: the relative growth is inactive: 89%.

As for `Cc1cccc(NP(C)(=O)Oc2ccccc2)c1` (stereo not drawn), the relative growth is inactive: 106%.

Regarding `CCOC(=O)c1ccc(NP(C)(=O)Oc2ccc(OC)cc2)cc1` (stereo not drawn), the relative growth is inactive: 107%.

As for `CP(=O)(NC(=O)Nc1ccccc1)Oc1ccccc1` (stereo not drawn), the relative growth was inactive: 108%.

For `COP1(=S)c2c(C)nn(-c3ccccc3)c2N=C(c2ccccc2)N1C1CC1` (stereo not drawn), the relative growth was inactive: 89%.

Take `O=P1(Nc2nccs2)CC=CC1`: the relative growth is inactive: 96.2%.

On to `O=C(OC1CN2CCC1CC2)C12CC3CC(CC(C3)C1)C2` (stereo not drawn), for which the relative growth is inactive: 87.9%.

Take `COP1(=S)N=C2c3ccccc3CN2c2cc(N(C)C)ccc21` (stereo not drawn): the relative growth is inactive: 95%.

For `Cc1cc(C)cc(OP(C)(=O)NCc2ccccc2)c1` (stereo not drawn), the relative growth is inactive: 127%.

As to `Nc1nonc1OCCOc1nonc1N`, the relative growth is inactive: 125%.

Consider `CC1=Nc2ccc(C(F)(F)F)cc2C1(C)C`, for which the relative growth was inactive: 78.2%.

For the compound `O=C(O)C1(O)c2ccccc2-c2ccccc21`, the relative growth is inactive: 99.2%.

`CCOP1(=S)c2c(C)nn(CCC#N)c2N=C(c2ccc(F)cc2)N1C` (stereo not drawn): the relative growth is inactive: 113%.

Turning to `O=P1(Nc2nc3ccc(Cl)cc3s2)COc2ccccc2OC1`, the relative growth is inactive: 87.5%.

Take `NC(=O)COC(=O)C1(O)c2ccccc2-c2ccccc21`: the relative growth was inactive: 79.9%.

With `Cc1cccc(OCC(=O)OC2CN3CCC2CC3)c1` (stereo not drawn), the relative growth was inactive: 112%.

With `COc1cc(-n2cnnn2)ccc1-n1cnnn1`, the relative growth was inactive: 95.2%.

For `O=C(OC1CN2CCC1CC2)c1ccc(Cl)cc1` (stereo not drawn), the relative growth was inactive: 108%.

Consider `Nc1nonc1-c1no[n+]([O-])c1-c1nonc1N`, for which the relative growth is inactive: 108%.

As for `O=P1(Nc2ccccn2)COc2ccccc2OC1`, the relative growth is inactive: 111%.

Consider `CC1(C)COP(=S)(N(C2=NCCC2)c2ccccc2)OC1`, for which the relative growth was inactive: 85.1%.

On to `Cc1cc(C)cc(OP(C)(=O)Nc2ccc(OC(C)C)cc2)c1` (stereo not drawn), for which the relative growth is inactive: 100%.

As for `CCSP(=O)(c1ccccc1)c1ccccc1`, the relative growth was inactive: 99.1%.

For the compound `Cc1nn(CCC#N)c2c1P(=O)(Nc1ccccc1Cl)N(C)C(c1ccc(F)cc1)=N2` (stereo not drawn), the relative growth is inactive: 96%.

Consider `CP(=O)(N1CCOCC1)N1CCOCC1`, for which the relative growth was inactive: 106%.

Consider `Cc1nn(-c2ccccc2)c2c1P(=O)(N1CCOCC1)N(C)C(c1ccccc1)=N2` (stereo not drawn), for which the relative growth is inactive: 100%.

On to `Cc1ccc(C(=O)OC2CN3CCC2CC3)cc1` (stereo not drawn), for which the relative growth is inactive: 96.8%.

For the compound `Nc1nonc1OCc1nonc1COc1nonc1N`, the relative growth is inactive: 87.8%.

Consider `CC(=O)OC1(C#N)CN2CCC1CC2` (stereo not drawn), for which the relative growth was active: -1.28%.

For `C=CCN1CCN(CCOC(=O)C(O)(c2ccccc2)c2ccccc2)CC1`, the relative growth was inactive: 82.6%.

As to `Cc1ccccc1NP(C)(=O)Nc1ccccc1C`, the relative growth was inactive: 88.1%.

Regarding `CC(=O)OC1CN2CCC1C(c1ccccc1)C2` (stereo not drawn), the relative growth is inactive: 111%.

Turning to `O=P(Nc1nccs1)(c1ccccc1)c1ccccc1`, the relative growth was inactive: 86.2%.

As for `O=C(OCCN1CCN(CCOCc2ccccc2)CC1)C(O)(c1ccccc1)c1ccccc1`, the relative growth is inactive: 147%.

Turning to `Cc1cc(NC2=NC3C(C(=O)N(C)C(=O)N3C)N2C)n(-c2ccccc2)n1` (stereo not drawn), the relative growth is inactive: 84.3%.

Take `O=P1(Nc2nncs2)C=C(c2ccccc2)SC(c2ccccc2)=C1`: the relative growth was inactive: 101%.

For `O=P1(Nc2nc3ccc(Cl)cc3s2)COc2ccccc2O1` (stereo not drawn), the relative growth is inactive: 120%.

Consider `CC1CCC(C(C)C)C(OP(=O)(Nc2nccs2)c2ccccc2)C1` (stereo not drawn), for which the relative growth was inactive: 125%.

With `O=C(OC1CN2CCC1CC2)c1ccccc1` (stereo not drawn), the relative growth is inactive: 91.7%.

Regarding `COc1cc2c(cc1NP(C)(=O)Oc1ccccc1)oc1ccccc12` (stereo not drawn), the relative growth was inactive: 48.2%.

With `COC(=O)c1cc2c(s1)N=C(c1ccccc1)N(C)P2(=O)N1CCOCC1` (stereo not drawn), the relative growth is inactive: 99.9%.

As for `O=C(OCC1CN(Cc2ccccc2)CCO1)C(O)(c1ccccc1)c1ccccc1` (stereo not drawn), the relative growth is inactive: 119%.

Consider `O=C(COC(=O)C(O)(c1ccccc1)c1ccccc1)N1CCCCC1`, for which the relative growth was inactive: 102%.

Consider `CCOP(=Nc1nc2ccccc2n2nnnc12)(OCC)OCC`, for which the relative growth is inactive: 102%.

Regarding `CP(=O)(Nc1ccccn1)Oc1ccccc1` (stereo not drawn), the relative growth was inactive: 96.2%.

In the case of `CCOP(OCC)N1CCOCC1`, the relative growth was inactive: 106%.

On to `CP(=O)(Nc1ccc(Cl)cc1)Oc1ccc(F)cc1` (stereo not drawn), for which the relative growth was inactive: 96%.

For `CCc1ccc(OP(C)(=O)Nc2cccnc2)cc1` (stereo not drawn), the relative growth was inactive: 89.8%.

Take `CCc1nc2c(n1)c1c(non1O)c1c2no[n+]1[O-]`: the relative growth was inactive: 88.7%.
